Pooled drug test results. Numbers come from NIAID ChemDB, via PubChem.

All rows: whole-cell or culture tests; species: HIV-1

Neighbouring rows are from separate reports. Blank or dashed fields: not listed here. ECn is the concentration giving n% inhibition of infection, replication or growth.

| compound | strain or isolate | mutations | setting | method | cell line | endpoint | value |
|---|---|---|---|---|---|---|---|
| Nc1nc(NC2CC2)c2ncn([C@H]3C=C[C@@H](CO)C3)c2n1 | Clinical isolate | M41L/A98G/K103N/M184V/L210W/T215Y |  | recombinant virus assay | MT-2 | EC50 | 0.8448 µM |
| CC(C)C1=C2[C@H]3CC[C@@H]4[C@@]5(C)CC[C@H](OC(=O)[C@H]6C[C@@H](C(=O)O)C6(C)C)C(C)(C)[C@@H]5CC[C@@]4(C)[C@]3(C)CC[C@@]2([C@@H](O)CNC(=O)C2(N)CCCCC2)CC1=O | 92HT599 |  |  | p24 / ELISA | MT-2 | EC50 | <1 µM |
| CC(C)C1=C2C3CCC4[C@@]5(C)CC[C@H](OC(=O)CC(C)(C)C(=O)O)C(C)(C)C5CC[C@@]4(C)[C@]3(C)CC[C@@]2(NC(=O)OCCN2CCCC2=O)CC1=O | IIIB |  | 30% human serum | RT activity | MT-2 | EC50 | <0.199 µM |
| CC(C)CN(CC(O)CN1CSC[C@H]1C(=O)NC(C)(C)C)S(=O)(=O)c1ccccc1 | IIIB |  |  | p24 | CEM | EC50 | <1 µM |
| COc1ccnc2[nH]cc(C(=O)C(=O)N3CCN(C(=O)c4ccccc4)C[C@H]3C)c12 | 6535 |  |  | luciferase | TZM-bl | EC99 | 0.1 µM |
| COC[C@@H](c1ccc(C(F)(F)F)cc1)N1CCN(C2(C)CCN(C(=O)c3c(C)ncnc3C)CC2)C[C@@H]1C | S | G514V V535M |  |  | TZM-bl | EC50 | 0.0052 µM |
| COc1ccc(S(=O)(=O)N(CC(O)CN(Cc2ccccc2)C(=O)O[C@@H]2CCOC2)CC2CCCC2)cc1 | IIIB |  |  | p24 | CEM | EC90 | 1 µM |
| CC(C)C1=C2[C@H]3CC[C@@H]4[C@@]5(C)CC[C@H](OC(=O)[C@H]6C[C@@H](C(=O)O)C6(C)C)C(C)(C)[C@@H]5CC[C@@]4(C)[C@]3(C)CC[C@@]2(CC(=O)N[C@H](C)c2ccccc2)CC1=O | 92HT599 |  |  | p24 / ELISA | MT-2 | EC50 | <1 µM |
| CC(C)C1=C2C3CCC4[C@@]5(C)CC[C@H](OC(=O)CC(C)(C)C(=O)O)C(C)(C)C5CC[C@@]4(C)[C@]3(C)CC[C@@]2(NC(=O)Nc2cccnc2)CC1=O | IIIB |  | 30% human serum | RT activity | MT-2 | EC50 | <0.199 µM |
| COc1ccc(S(=O)(=O)NC(Cc2ccccc2)C(F)(F)C(=O)[C@@H](Cc2ccccc2)NC(=O)OC2COCOC2)cc1 | IIIB |  |  | p24 | CEM | EC50 | <1 µM |
| CC(C)C1=C2[C@H]3CC[C@@H]4[C@@]5(C)CC[C@H](OC(=O)[C@H]6C[C@@H](C(=O)O)C6(C)C)C(C)(C)[C@@H]5CC[C@@]4(C)[C@]3(C)CC[C@@]2([C@@H](O)CNCc2ncc[nH]2)CC1=O | 92HT599 |  |  | p24 / ELISA | MT-2 | EC50 | <1 µM |
| CC(C)CN(CC(O)CN(CC(C)C)S(=O)(=O)c1ccc([N+](=O)[O-])cc1)S(=O)(=O)c1ccccc1 | IIIB |  |  | p24 | CEM | EC90 | 1 µM |
| CC(C)C1=C2[C@H]3CC[C@@H]4[C@@]5(C)CC[C@H](OC(=O)CC(C)(C)C(=O)O)C(C)(C)[C@@H]5CC[C@@]4(C)[C@]3(C)CC[C@@]2(NC(=O)c2ccc(F)cc2)CC1=O | IIIB |  | 30% human serum | RT activity | MT-2 | EC50 | <0.199 µM |
| C#C[C@@]1(CO)C=C[C@H](n2cc(C)c(=O)[nH]c2=O)O1 | Clinical isolate | A62V/V75I/F77L/F116L/Q151M/M184V |  | recombinant virus assay | MT-2 | EC50 | 8.075 µM |
| CCSCCn1c(=O)c(O)c2n(c1=O)CCN(Cc1ccc(F)cc1)C2=O |  |  |  | p24 | MT-4 | EC95 | <10 µM |
| COc1ccnc2[nH]cc(C(=O)C(=O)N3C4CCC3CN(C(=O)c3ccccc3)C4)c12 | PVO |  |  | luciferase | TZM-bl | EC90 | 9.4 µM |
| CC1(C)CC=C(c2cn(-c3nccc(C(=O)NC4CCC(N5CC6CCC(C5)O6)CC4)n3)c3ccc(F)c([C@H](OC(C)(C)C)C(=O)O)c23)CC1 | NL4-3 | V126I |  | luminescence | MT-4 | EC50 | 0.0054 µM |
| CC(C)C1=C2[C@H]3CC[C@@H]4[C@@]5(C)CC[C@H](OC(=O)CC(C)(C)C(=O)O)C(C)(C)[C@@H]5CC[C@@]4(C)[C@]3(C)CC[C@@]2(NC(=O)OC(C)(C)C)CC1=O | IIIB |  |  | RT activity | MT-2 | EC50 | <0.199 µM |
| CC(C)C1=C2[C@H]3CC[C@@H]4[C@@]5(C)CC[C@H](OC(=O)[C@H]6C[C@@H](C(=O)O)C6(C)C)C(C)(C)[C@@H]5CC[C@@]4(C)[C@]3(C)CC[C@@]2([C@@H](O)CNCC(C)(CCCCN)NC(=O)c2ccc(Cl)cc2)CC1=O | 92HT599 |  |  | p24 / ELISA | MT-2 | EC50 | <1 µM |
| CC(C)n1c(=O)c(O)c2n(c1=O)CCN(Cc1ccccc1C#N)C2=O |  |  |  | p24 | MT-4 | EC95 | <10 µM |
| CC(C)C1=C2[C@H]3CC[C@@H]4[C@@]5(C)CC[C@H](OC(=O)[C@H]6C[C@@H](C(=O)O)C6(C)C)C(C)(C)[C@@H]5CC[C@@]4(C)[C@]3(C)CC[C@@]2(CC(=O)NCc2ccc3nc[nH]c3c2)CC1=O | 92HT599 |  |  | p24 / ELISA | MT-2 | EC50 | <1 µM |
| CC(C)CN(CC(O)CCN1CSC[C@@H]1C(=O)NC(C)(C)C)S(=O)(=O)c1ccccc1 | IIIB |  |  | p24 | CEM | EC50 | <1 µM |
| CC(C)C1=C2C3CCC4[C@@]5(C)CC[C@H](OC(=O)CC(C)(C)C(=O)O)C(C)(C)C5CC[C@@]4(C)[C@]3(C)CC[C@@]2(NC(=O)N[C@H](C)C(F)(F)F)CC1=O | IIIB |  | 30% human serum | RT activity | MT-2 | EC50 | <0.199 µM |
| CC(C)C1=C2[C@H]3CC[C@@H]4[C@@]5(C)CC[C@H](OC(=O)[C@H]6C[C@@H](C(=O)O)C6(C)C)C(C)(C)[C@@H]5CC[C@@]4(C)[C@]3(C)CC[C@@]2([C@@H](O)CNCc2ccc(CN3CCS(=O)(=O)CC3)cc2)CC1=O | 92HT599 |  |  | p24 / ELISA | MT-2 | EC50 | <1 µM |
| Nc1cccc(S(=O)(=O)N(CC2CCCC2)C[C@@H](O)CN(CCc2ccccc2)C(=O)c2ccncc2)c1 | IIIB |  |  | p24 | CEM | EC90 | 0.1 µM |
| CC(C)C1=C2[C@H]3CC[C@@H]4[C@@]5(C)CC[C@H](OC(=O)CC(C)(C)C(=O)O)C(C)(C)[C@@H]5CC[C@@]4(C)[C@]3(C)CC[C@@]2(NC(=O)c2cccs2)CC1=O | IIIB |  | 30% human serum | RT activity | MT-2 | EC50 | <0.199 µM |
| O=C1c2c(O)c(=O)n(C3Cc4ccccc4C3)c(=O)n2CCN1Cc1ccc(F)cc1 |  |  |  | p24 | MT-4 | EC50 | <10 µM |
| CC(C)[C@H](NC(=O)OCc1ccccn1)C(=O)N[C@@H](Cc1ccccc1)[C@@H](O)C[C@H](Cc1ccccc1)NC(=O)OCc1cccnc1 | NL4-3 | PR-L10R M46I |  | p24 | MT-4 | EC95 | 0.8 µM |
| CCC(=O)c1ccc(F)c([C@@H]2C[C@@H]2NC(=O)Nc2ccc(C#N)cn2)c1O | LAI | NNRTI-resistant (RT K101E/G190A) |  | β-galactosidase / luminescence | TZM-bl | EC50 | 0.00145 µM |
| COC(=O)C(CCSC)n1c(=O)c(O)c2n(c1=O)CCN(Cc1ccc(F)cc1)C2=O |  |  |  | p24 | MT-4 | EC95 | <10 µM |
| CC(C)C1=C2C3CC[C@@H]4[C@@]5(C)CC[C@H](OC(=O)CC(C)(C)C(=O)O)C(C)(C)[C@@H]5CC[C@@]4(C)[C@]3(C)CC[C@@]2(NC(=O)Nc2ccncc2)CC1=O | IIIB |  | 30% human serum | RT activity | MT-2 | EC50 | <0.199 µM |